Experimental data published in article PMC10674488, “Structural Basis of Clostridium perfringens Enterotoxin Activation and Oligomerization by Trypsin” (Toxins, 2023).

Target: the molecule itself
Assay: crystal structure

B1: C-terminal claudin-binding domain of Clostridium perfringens enterotoxin (domain or fragment)
chain: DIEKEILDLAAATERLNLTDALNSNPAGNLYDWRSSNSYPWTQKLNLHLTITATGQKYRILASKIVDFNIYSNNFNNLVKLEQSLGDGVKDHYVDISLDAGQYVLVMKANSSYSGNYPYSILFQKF
- binding result: binds
